Experimental data as given in article PMC8126241, “Active Components from Cassia abbreviata Prevent HIV-1 Entry by Distinct Mechanisms of Action” (International Journal of Molecular Sciences, 2021).

System: pseudotyped viruses pNL4.3ΔEnvLuc-HXB2/pNL4.3ΔEnvLuc-BAL
Type: cell-based, HIV-1
Conditions: EC95 level, CompuSyn; CI < 0.9 means synergy

Oc1cc(O)cc(/C=C/c2ccc(O)c(O)c2)c1 [piceatannol, trans-3,3′,4,5′-tetrahydroxystilbene]
< 0.9: Combination index (CI) with AMD100 | Combination index (CI) with Maraviroc | Combination index (CI) with T20
